# Assay results taken from patent US20150093752.
# Target: T1, M.HhaI DNA cytosine-5 methyltransferase (UniProt P05102)
# T1 sequence (looked up, limits assumed): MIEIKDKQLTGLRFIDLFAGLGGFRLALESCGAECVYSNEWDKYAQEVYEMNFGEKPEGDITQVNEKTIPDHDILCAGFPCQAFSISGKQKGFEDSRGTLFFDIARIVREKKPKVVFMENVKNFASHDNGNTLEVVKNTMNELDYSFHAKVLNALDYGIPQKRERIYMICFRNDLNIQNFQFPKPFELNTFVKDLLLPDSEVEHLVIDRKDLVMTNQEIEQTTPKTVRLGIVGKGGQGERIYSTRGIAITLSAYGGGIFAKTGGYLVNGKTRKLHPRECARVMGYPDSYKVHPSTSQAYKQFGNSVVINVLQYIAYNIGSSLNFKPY
# Assay: activity assay
# Details: purified recombinant protein
Sequence,"activity on this sequence (13 mM formaldehyde forms hmC, then coupling of thiols, selenols or hydroxylamine, variant of duplex I:II hmC)","activity on this sequence (hmC at target C of GCGC (enzymatically introduced), hmC nearly fully converted to C, cofactor-free, 37 C 2 h, HPLC-MS)"
TAATAATGCGCTAATAATAATAAT / TTATTACGCGATTATTATTATTA [duplex I:II unmodified],active,–
TAATAATGCGCTAATAATAATAAT / TTATTACGCGATTATTATTATTA [duplex I:II hmC],–,active

# For at least one entry, the source does not settle the construct or the ends of the probe. Tags and fusion partners may be left off the protein sequences shown.
